A mixed list of measured activities; the numbers were collected in NIAID ChemDB.

Common to all: growth or infection tests; organism: HIV-1; endpoint: fold resistance

a–b is a range or a potency band. Conditions beyond the fields shown may differ between rows. Fold resistance: result on the changed form divided by that on wild type.

{"smiles": "COC(=O)[C@H](C)NP(=O)(OC[C@@H]1C=C[C@H](n2cc(C)c(=O)[nH]c2=O)O1)Oc1ccccc1Br", "strain or isolate": "A17", "cell line": "PBMC", "read by": "p24", "mutations": "RT-Y181C", "result": "21"}
{"smiles": "CCCCOC(=S)Nc1ccc(Cl)c(C(=O)OC(C)C)c1", "cell line": "CEM", "read by": "syncytia", "mutations": "RT-L100I", "result": "58.3"}
{"smiles": "COC(=O)[C@H](C)NP(=O)(OC[C@@H]1C=C[C@H](n2cc(C)c(=O)[nH]c2=O)O1)Oc1ccc(Br)cc1Cl", "strain or isolate": "A17", "cell line": "PBMC", "read by": "p24", "mutations": "RT-Y181C", "result": "31"}
{"smiles": "CCC(=O)c1ccc(F)c([C@@H]2C[C@@H]2NC(=O)Nc2ccc(C#N)cn2)c1O", "strain or isolate": "LAI", "cell line": "TZM-bl", "read by": "β-galactosidase / luminescence", "mutations": "NNRTI-resistant (RT V108I)", "result": "1.3"}
{"smiles": "CCCCOC(=O)c1cc(NC(=S)OC(C)C)ccc1Cl", "cell line": "CEM", "read by": "syncytia", "mutations": "RT-Y181C", "result": "15"}
{"smiles": "Cc1cc2[nH]cnc2cc1NC(=O)COc1ccc(Cl)cc1C(=O)c1cc(F)cc(C(F)(F)F)c1", "strain or isolate": "HXB2", "cell line": "HeLa + HELA CD4+", "read by": "β-galactosidase", "mutations": "RT-K103N L100I", "result": "~1"}
{"smiles": "CCN1c2ncc(CCOc3ccc(/C=C(\\C)C(=O)O)c4ccccc34)cc2C(=O)N(C)c2ccc(Cl)nc21", "cell line": "C8166", "read by": "p24", "mutations": "RT-K103N Y181C", "result": "1"}
{"smiles": "CC(=O)OCCOC(=O)c1cc(NC(=S)OC(C)C)ccc1Cl", "cell line": "CEM", "read by": "syncytia", "mutations": "RT-V106A", "result": ">10"}
{"smiles": "Cc1cc(S(N)(=O)=O)ccc1NC(=O)COc1ccc(Cl)cc1C(=O)c1cccc(C#N)n1", "strain or isolate": "HXB2 (RT-K103N G190A) Recombinant", "cell line": "HeLa + HELA CD4+", "read by": "β-galactosidase", "mutations": "RT-K103N G190A", "result": "~1"}
{"smiles": "COC(=O)[C@H](C)NP(=O)(OC[C@@H]1C=C[C@H](n2cc(C)c(=O)[nH]c2=O)O1)Oc1c(OC)cccc1OC", "strain or isolate": "RTMDR", "cell line": "PBMC", "read by": "p24", "mutations": "RT M41L L74V T215Y V106N", "result": "184"}
{"smiles": "Cc1ccc(Oc2cn(C)c(=O)c(Nc3ccc(F)cc3)n2)c(C)c1", "cell line": "MT-4", "read by": "cytopathic effect / MTT", "mutations": "RT-Y188L", "result": ">7.95"}
{"smiles": "CCN1c2ncc(CCOc3ccc(C(=O)O)c4c3CCCC4)cc2C(=O)N(C)c2ccc(OC)nc21", "cell line": "C8166", "read by": "p24", "mutations": "RT-K103N Y181C", "result": "1"}
{"smiles": "CCOCn1c(Cc2ccccc2)c(C#N)c(=O)n(COCC)c1=O", "mutations": "RT-Y181C", "result": ">1"}
{"smiles": "Cc1cc(C#N)cc(C)c1Oc1nc(Nc2ccc(C#N)cc2)c(=O)n(C)c1C", "cell line": "MT-4", "read by": "cytopathic effect / MTT", "mutations": "RT-L100I", "result": "1"}
{"smiles": "Cc1ccc(C)c(CS(=O)(=O)c2cccc[n+]2[O-])c1", "strain or isolate": "IIIB", "cell line": "CEM", "read by": "syncytia", "mutations": "RT-L100I", "result": "1.89"}
{"smiles": "CC(C)OC(=O)c1cc(NC(=S)OCC2CC2)ccc1Cl", "cell line": "CEM", "read by": "syncytia", "mutations": "RT-E138K", "result": "28.6"}
{"smiles": "Cc1ccc(C)c(CS(=O)c2ccc(Cl)c[n+]2[O-])c1", "strain or isolate": "IIIB", "cell line": "CEM", "read by": "syncytia", "mutations": "RT-L100I", "result": "2.3"}
{"smiles": "COCCOC(=S)Nc1ccc(Cl)c(C(=O)OC(C)C)c1", "cell line": "CEM", "read by": "syncytia", "mutations": "RT-Y181C", "result": "≥52.6"}
{"smiles": "C=Cc1c(Cc2ccccc2)n(COCC)c(=O)[nH]c1=O", "mutations": "RT-Y181C", "result": "1430"}
{"smiles": "Cc1cc(C#N)cc(C(=O)c2cc(Cl)ccc2OCC(=O)Nc2ccc(OCCCN3CC=CC3)cc2C)c1", "strain or isolate": "HXB2", "cell line": "HeLa + HELA CD4+", "read by": "β-galactosidase", "mutations": "RT-K103N", "result": "~1"}
{"smiles": "CO/N=C/c1cc(NC(=S)OC(C)C)ccc1Cl", "cell line": "CEM", "read by": "syncytia", "mutations": "RT-Y181C", "result": "83.4"}
{"smiles": "CCN1c2ncc(CCOc3ccc(NS(=O)(=O)C(F)(F)F)c4ccccc34)cc2C(=O)N(C)c2ccc(F)nc21", "cell line": "C8166", "read by": "p24", "mutations": "RT-V106A", "result": "1–10"}
{"smiles": "O=C(COc1ccc(Cl)cc1C(=O)c1ccccc1)Nc1ccc2cn[nH]c2c1", "strain or isolate": "Nevirapine-resistant (RT Y181C)", "cell line": "MT-4", "read by": "cytopathic effect / propidium iodide", "mutations": "RT-Y181C", "result": "~10"}
{"smiles": "CCN1c2ncc(CCOc3ccc(CCC(=O)O)c4c3CCCC4)cc2C(=O)N(C)c2cccnc21", "cell line": "C8166", "read by": "p24", "mutations": "RT-K103N Y181C", "result": "1"}
{"smiles": "CC(=O)COc1cc(NC(=S)OC(C)C)ccc1Cl", "cell line": "CEM", "read by": "syncytia", "mutations": "RT-L100I", "result": "8.99"}
{"smiles": "C[C@@H]1CCO[C@H]2Cn3cc(C(=O)NCc4ccc(F)cc4F)c(=O)c(O)c3C(=O)N12", "cell line": "TZM-bl", "read by": "luciferase / luminescence", "mutations": "L74F/V75I", "result": "0.3"}
{"smiles": "CC(C)OC(=O)Nc1ccc(Cl)c(C(=O)OC(C)C)c1", "cell line": "CEM", "read by": "syncytia", "mutations": "RT-L100I", "result": "1.36"}
{"smiles": "Cc1cc(C)c(CS(=O)c2cccc[n+]2[O-])c(C)c1", "strain or isolate": "IIIB", "cell line": "CEM", "read by": "syncytia", "mutations": "RT-L100I", "result": "1.875"}
{"smiles": "CC(C)OC(=S)Nc1ccc(Cl)c(C(=O)OCC(F)(F)F)c1", "cell line": "CEM", "read by": "syncytia", "mutations": "RT-E138K", "result": "20"}
{"smiles": "CCOCn1c(Cc2ccccc2)c(I)c(=O)[nH]c1=O", "mutations": "RT-Y181C", "result": "476"}
{"smiles": "CC(C)OC(=S)Nc1ccc(Cl)c(C(=O)OCC[Si](C)(C)C)c1", "cell line": "CEM", "read by": "syncytia", "mutations": "RT-L100I", "result": "12.5"}
{"smiles": "Cc1cc(C)c(Oc2nc(Nc3ccc(C#N)cc3)c(=O)n(C)c2C)c(C)c1", "cell line": "MT-4", "read by": "cytopathic effect / MTT", "mutations": "RT-Y181C", "result": "100.2"}
{"smiles": "CCCCCOC(=S)Nc1ccc(Cl)c(C(=O)OC(C)C)c1", "cell line": "CEM", "read by": "syncytia", "mutations": "RT-Y181C", "result": "10.9"}
{"smiles": "Cc1cc(S(N)(=O)=O)ccc1NC(=O)COc1ccccc1C(=O)c1cc(Cl)cc(C#N)c1", "cell line": "HeLa MAGI + HeLa", "read by": "β-galactosidase", "mutations": "RT-L100I K103N", "result": "10"}
{"smiles": "C=CCOC(=S)Nc1ccc(Cl)c(C(=O)OC(C)C)c1", "cell line": "CEM", "read by": "syncytia", "mutations": "RT-L100I", "result": "67.1"}
{"smiles": "CCCc1cc(=O)oc2c3c(c4c(c12)OC(C)(C)CC4)O[C@H](C)[C@@H](C)C3=O", "read by": "cytopathic effect / XTT", "mutations": "RT-M184I", "result": "<6"}